PubChem BioAssay AID1626 (SRMLSC, 2009)
The list shows a part of the results. Active and inactive are the calls of the source. Cut-off read from the data, not from the text of the source: inconclusive = inhibition above about 80% without an active follow-up result; inactive = below that; test concentration not stated here.

Assay: M. tuberculosis H37Rv growth inhibitors, H37Rv strain (AID 1626);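 note: bacteria incubated seven days before Alamar blue readout; 0% = bacteria only wells and 100% = bacteria with antibiotic wells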
Details: stronger effect = higher value, concentration not given here
In the case of `Cc1ccc(OP(=O)(Nc2ccc([N+](=O)[O-])cn2)Oc2ccc(C)cc2)cc1`, the inhibition is reported as inactive: -9.63%.
